Laboratory results taken from PubChem BioAssay AID1533 (PCMD, 2009).
The entries are a selection whose mix differs from that of the whole data set. Activity calls are given as the source filed them. Cut-off read from the data, not from the text of the source: active = inhibition mostly above about 34% (no sharp cut-off); inconclusive = no clear call, values can overlap the other calls; inactive = mostly below about 22%.

Amino acid sequences for entries named in this document (tags omitted).
UniProt P9WH09, whole entry, looked up: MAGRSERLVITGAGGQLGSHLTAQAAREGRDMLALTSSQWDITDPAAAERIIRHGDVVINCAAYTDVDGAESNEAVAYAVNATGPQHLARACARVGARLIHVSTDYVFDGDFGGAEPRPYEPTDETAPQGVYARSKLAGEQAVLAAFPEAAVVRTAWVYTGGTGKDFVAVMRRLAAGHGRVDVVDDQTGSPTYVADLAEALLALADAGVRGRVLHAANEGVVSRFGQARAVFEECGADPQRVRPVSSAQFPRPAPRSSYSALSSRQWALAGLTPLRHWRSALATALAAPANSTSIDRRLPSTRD
UniProt P9WH11, whole entry, looked up: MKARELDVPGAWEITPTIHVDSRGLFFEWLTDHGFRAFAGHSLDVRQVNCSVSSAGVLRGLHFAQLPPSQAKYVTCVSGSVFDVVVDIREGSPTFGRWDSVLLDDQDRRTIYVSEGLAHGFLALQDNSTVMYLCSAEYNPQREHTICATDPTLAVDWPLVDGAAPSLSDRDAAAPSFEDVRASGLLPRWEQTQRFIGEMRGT

Biological target: dTDP-4-dehydrorhamnose reductase (Mycobacterium tuberculosis (strain ATCC 25618 / H37Rv)) + dTDP-4-dehydrorhamnose 3,5-epimerase (Mycobacterium tuberculosis (strain ATCC 25618 / H37Rv)) (UniProt P9WH09+P9WH11)
Experiment: M. tuberculosis RmlC/RmlD coupled enzyme inhibitors, primary screen, biochemical, compound mixtures, 384-well, from 1536-well plates (AID 1533)
Settings: RmlC+RmlD coupled enzyme assay, percent inhibition; primary screen in compound mixtures; at 3.6 µM; active compounds read high

Structure (SMILES)	inhibition
O=[N+]([O-])c1ccc(OP2(=O)COCCO2)cc1 (stereo unspecified)	inactive: 4.11%
